Results as given in publication PMC7612645.
Construct, isoform or probe ends are uncertain for at least one entry. Whether high values mean tight binding is not given here for every scale.

Amino acid sequences for entries named in this document (tags omitted).
UniProt P03146, whole entry: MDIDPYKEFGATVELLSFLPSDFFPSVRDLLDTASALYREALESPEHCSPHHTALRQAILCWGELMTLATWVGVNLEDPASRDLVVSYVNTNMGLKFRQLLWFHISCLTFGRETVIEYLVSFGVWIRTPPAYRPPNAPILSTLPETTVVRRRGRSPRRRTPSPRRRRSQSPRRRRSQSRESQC

Target: HBV core protein (Cp) dimer (Hepatitis B virus) (UniProt P03146)
Experiment: fluorescence anisotropy
Details: 10 uM compound #66, up to 1.2 uM Cp, 15 nM RNA; 20 mM HEPES pH 7.5, 250 mM NaCl, 5 mM DTT, DMSO +/- compound, <0.15 M GuHCl, room temperature; Cp titrated in 10 steps to 1.2 uM; recombinant protein; label: 5' AlexaFluor (SDP ester); scale: normalized anisotropy change vs no compound

With “GGGUUUUGGGUUUGUUUAAAGACUGGGAGGAGUUGGGGGAGGAGCCC [PS1 (NC_003977.1)]” the binding signal was 0.938.
